Assay results as given in patent US20120277184A1 (priority 2004, published 2012).

Chains of the proteins cited; added tags and fusions are not shown. Residues count along the entry.
UniProt P09616, 27-319 limits assumed: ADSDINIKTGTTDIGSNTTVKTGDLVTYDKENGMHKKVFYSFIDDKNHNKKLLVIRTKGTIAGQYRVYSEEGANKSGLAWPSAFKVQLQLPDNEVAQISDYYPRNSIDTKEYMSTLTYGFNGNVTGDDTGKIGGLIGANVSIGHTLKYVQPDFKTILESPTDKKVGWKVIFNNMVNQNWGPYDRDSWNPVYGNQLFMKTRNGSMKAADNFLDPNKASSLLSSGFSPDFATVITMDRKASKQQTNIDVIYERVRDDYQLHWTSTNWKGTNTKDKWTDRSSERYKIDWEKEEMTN

How the values were obtained:
LeTx = LeTx (Bacillus anthracis, UniProt P13423); assay: Inhibition of LeTx cytotoxicity in RAW 264.7 cells (MTS cell viability)
α-HL = α-HL (Staphylococcus aureus, UniProt P09616); assay: Hemolysis assay, protection of rabbit erythrocytes from α-HL; assay type: cell-based; conditions: read-out: Inhibition of cytotoxicity IC50; Table 3 section 2; staphylococcal α-toxin; tested form: TFA

Row | Structure (SMILES) | IC50 (LeTx; read-out: Inhibition of cytotoxicity IC50, Table 3 section 1, anthrax toxin) [µM] | IC50 (α-HL) [µM] | Anti-LeTx activity / protection of RAW 264.7 cells from LeTx (in words) (LeTx; RAW 264.7 mouse macrophage cells, tested form: TFA)
1 | CO[C@@H]1[C@@H](OC)[C@H]2O[C@H]3[C@H](OC)[C@@H](OC)[C@@H](O[C@H]4[C@H](OC)[C@@H](OC)[C@@H](O[C@H]5[C@H](OC)[C@@H](OC)[C@@H](O[C@H]6[C@H](OC)[C@@H](OC)[C@@H](O[C@H]7[C@H](OC)[C@@H](OC)[C@@H](O[C@@H]1[C@@H](CN)O2)O[C@@H]7CN)O[C@@H]6CN)O[C@@H]5CN)O[C@@H]4CN)O[C@@H]3CN | 0.3 |  | 
2 | NC(CSCc1ccccc1)C(=O)NCC1OC2OC3C(CNC(=O)C(N)CSCc4ccccc4)OC(OC4C(CNC(=O)C(N)CSCc5ccccc5)OC(OC5C(CNC(=O)C(N)CSCc6ccccc6)OC(OC6C(CNC(=O)C(N)CSCc7ccccc7)OC(OC7C(CNC(=O)C(N)CSCc8ccccc8)OC(OC8C(CNC(=O)C(N)CSCc9ccccc9)OC(OC1C(O)C2O)C(O)C8O)C(O)C7O)C(O)C6O)C(O)C5O)C(O)C4O)C(O)C3O (stereo not drawn) |  | 10.6 | detectible level of LeTx inhibiting activity
